Source: PMC7949097, “Human Gb3/CD77 synthase produces P1 glycotope-capped N-glycans, which mediate Shiga toxin 1 but not Shiga toxin 2 cell entry” (2021)
pKd: −log10 of the molar value.

Biological target: SapD glycoform 5, human saposin D carrying the P1 glycotope on its N-glycan (human) (UniProt P07602)
Test: SPR

“Shiga toxin 1 B subunit (Stx1B) used in the SPR analysis (domain or fragment)” gave a pKd of 4.48.
